Measured values from several laboratories, pooled; numbers as filed in NIAID ChemDB.

Shared fields: tests in culture; agent: Plasmodium falciparum; read-out: EC50

ECn is the concentration giving n% inhibition of infection, replication or growth.

structure	conditions	cells	read by	strain or isolate	mutations	result
CC1CC2CCC3CC(CCc4ccc(F)cc4)N=C(N1)N32			LDH	W2		13.24 µM
Cn1nc(C(F)(F)F)c(-c2ccc(Br)cc2)c1NC(=O)Nc1ccc(F)cc1F			SYBR Green / fluorescence	KAE609R-2	KAE609-resistant (T418N/P990R)	0.613 µM
N=C(N)c1ccc(OCCOc2ccc(C(=N)N)cc2)cc1			hypoxanthine uptake	D6		0.294 µM
CC[C@H]1OC(=O)[C@H](C)[C@@H](OC2C[C@@](C)(OC)[C@@H](O)[C@H](C)O2)[C@H](C)[C@@H](OC2O[C@H](C)C[C@H](N(C)C)[C@H]2O)[C@](C)(O)C[C@@H](C)CN(C)[C@H](C)[C@@H](O)[C@]1(C)O	120 h	RBC	fluorescence	3D7		0.06 µM
N=C(N)c1ccc(OCCCCCOc2ccc(C(=N)N)cc2[N+](=O)[O-])c([N+](=O)[O-])c1			hypoxanthine uptake	W2		0.114 µM
Fc1ccc(CC[C@@H]2C[C@@H]3CC[C@@H]4C[C@H](CCc5ccc(F)cc5)NC(=N2)N43)cc1			LDH	W2		7.33 µM
COc1cc(C(=N)N)ccc1OCCCCCOc1ccc(C(=N)N)cc1OC			hypoxanthine uptake	W2		0.101 µM
C=CCC[C@@H]1C[C@@H]2CC[C@@H]3C[C@H](CCC=C)NC(=N1)N32			LDH	W2		10.98 µM
N=C(N)c1ccc(OCCOc2ccc(C(=N)N)cc2N)c(N)c1			hypoxanthine uptake	D6		0.779 µM
CC[C@H]1OC(=O)[C@H](C)[C@@H](OC2C[C@@](C)(OC)[C@@H](O)[C@H](C)O2)[C@H](C)[C@@H](OC2O[C@H](C)C[C@H](N(C)C)[C@H]2O)[C@](C)(OC2C[C@@H](N(C)C)[C@@H](O)[C@H](C)O2)C[C@@H](C)CN(C)[C@H](C)[C@@H](O)[C@]1(C)O	120 h	RBC	fluorescence	W2 Mef AziR		0.22 µM
CC1CC2CCCC3CC(CCc4ccccc4)N=C(N1)N32			LDH	D6		9.24 µM
COc1cc2c(NC3CCN(C)CC3)nc(N3CCCN(C)CC3)nc2cc1O			fluorescence	3D7		>2 µM
N=C(N)c1ccc(OCCCCCOc2ccc(C(=N)N)cc2)cc1			hypoxanthine uptake	D6		0.051 µM
Clc1cccc(CC[C@H]2C[C@H]3CC[C@H]4C[C@@H](CCc5cccc(Cl)c5)NC(=N2)N34)c1			LDH	W2		7.71 µM
C[C@H]1Cc2c([nH]c3cc(Cl)c(F)cc23)[C@@]2(N1)C(=O)Nc1ccc(Cl)cc12			SYBR Green / fluorescence	KAE678R-1	KAE678-resistant (G223R)	0.00414 µM
Cc1cccc(CC[C@H]2C[C@H]3CC[C@H]4C[C@@H](CCc5cccc(C)c5)NC(=N2)N34)c1			LDH	D6		4.23 µM
C[C@H]1CCc2c([nH]c3ccccc23)[C@@]2(N1)C(=O)Nc1ccc(Cl)cc12			SYBR Green / fluorescence	KAE609R-2	KAE609-resistant (T418N/P990R)	0.236 µM
N=C(N)c1ccc(OCCCCOc2ccc(C(=N)N)cc2N)c(N)c1			hypoxanthine uptake	D6		0.152 µM

A second listing of 2 rows from above:

| structure | conditions | cells | read by | strain or isolate | mutations | result |
|---|---|---|---|---|---|---|
| N=C(N)c1ccc(OCCCCCOc2ccc(C(=N)N)cc2[N+](=O)[O-])c([N+](=O)[O-])c1 |  |  | hypoxanthine uptake | W2 |  | 0.114 µM |
| CC1CC2CCC3CC(CCc4ccc(F)cc4)N=C(N1)N32 |  |  | LDH | W2 |  | 13.24 µM |

Blank or dashed fields: not listed here. Rows are shuffled and stem from different studies.